Measured values taken from patent US20050049309A1, “Regulation of HIF protein levels via deubiquitination pathway” (priority 2003, published 2005).

Tests used:
HIF-1α = experiment: Ubiquitination of HIF-1α in cells (immunoprecipitation and Western blotting); format: cell-based, human; conditions: HT-29 cells, 16 hours, normoxic and hypoxic conditions, dose-dependent
[1] = tested on: deubiquitinase enzyme activity (HT-29 cell lysate) on polyubiquitinated HIF-1α; experiment: In vitro deubiquitination assay with polyubiquitinated HIF-1α and cell lysate; format: biochemical, human; conditions: HT-29 lysate incubated 15 min with 5 μM PX-478, the lowest concentration tested
HIF-1α protein = HIF-1α protein levels in cancer cells by Western blotting of nuclear extracts; conditions: MCF-7 cells, hypoxia 16 hours with 25 M PX-478, then washed out
[2] = tested on: HT-29 colon tumor xenografts; experiment: HT-29 colon tumor xenografts in scid mice, tumor protein levels by Western blotting; conditions: HT-29 xenografts in scid mice, 2 hr

N[C@@H](Cc1ccc([N+]([O-])(CCCl)CCCl)cc1)C(=O)O
Ubiquitination of HIF-1α (HIF-1α): increased ubiquitination of HIF-1α
Deubiquitination of HIF-1α in vitro [1]: prevented the deubiquitination of HIF-1α
Time for HIF-1α protein to return to pre-treatment levels after drug removal (HIF-1α protein): ≤ 4 h
Decrease in tumor HIF-1α protein ([2]; 100 mg/kg intraperitoneally): 60%
Decrease in tumor VEGF protein ([2]; 100 mg/kg intraperitoneally): 30%
Ubiquitination of HIF-1α in tumor ([2]; 100 mg/kg): markedly increased
